PubChem BioAssay AID504761 – Drosophila RNAi Screening Center | 2011

- Purpose: 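Fly genes whose silencing reduces dengue virus type 2 infection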 (primary screen)
- System: D.Mel-2 cells from Drosophila
- Reagents: long dsRNA against Drosophila genes
- Treatment: infection with dengue virus type 2; dose and infection time not stated
- Measurement: 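Per well on two replicate plates, imaging gave the percent of cells positive for viral envelope protein, ranked by infection, and a nuclear count of cells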
- Scale: infection score: higher = more virus-infected cells
- Hit rule: 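Very low infection ranking in both replicate wells (chance probability at most 0.065), then a retest showing infection dropped 1.5-fold or more at p below 0.05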
- Calls: active = confirmed: knock-down lowers infection; inactive = not picked or not confirmed
The deposit covers about 22,000 reagents; this is a random part of those that have a named target and a result. Of all reagents, 116 (0.52%) are marked active. 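Calls depend on retest data that are not deposited; infection was ranked per plate without normalising between plates; the unit of the infection score is not given.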 Further read-outs or replicates are left out here. Not stated in the record: the amount of reagent, the time to read-out.

Against CG13018 (GeneID 50224) [SID104186066], the values are infection score, replicate 1 = 6.91; inactive. For CG11593 (GeneID 38477) [SID104187998] the deposit lists infection score, replicate 1 = 1.43; inactive. For swa (GeneID 31580) [SID104198634], the entry reads infection score, replicate 1 = 14.3; inactive. swa (GeneID 31580) [SID104204100] scored infection score, replicate 1 = 7.34; inactive. CG15201 (GeneID 32053) [SID104199440] showed infection score, replicate 1 = 14.8; inactive. For Ptp36E (GeneID 35091) [SID104182813] the deposit lists infection score, replicate 1 = 0.17; inactive.

Knock-down of CG30413 (GeneID 246601) [SID104183793] resulted in: infection score, replicate 1 = 0.67; inactive. CG30413 (GeneID 246601) [SID104208064] gave infection score, replicate 1 = 14.2; inactive. With knock-down of CG7840 (GeneID 34136) [SID104182867] the results were infection score, replicate 1 = 1.45; inactive. CG33469 (GeneID 2768832) [SID104202259] scored infection score, replicate 1 = 0.7; inactive. For SNRPG (GeneID 32636) [SID104199999], the entry reads infection score, replicate 1 = 2.99; inactive. With knock-down of CG31776 (GeneID 33568) [SID104180508], the screen gave infection score, replicate 1 = 4.73; inactive.

Knock-down of pxb (GeneID 41899) [SID104192902] resulted in: infection score, replicate 1 = 7.49; inactive. With knock-down of pxb (GeneID 41899) [SID104194788] the results were infection score, replicate 1 = 5.74; inactive. Against pxb (GeneID 41899) [SID104194789], the values are infection score, replicate 1 = 6.81; inactive. With knock-down of pxb (GeneID 41899) [SID104201756] the results were infection score, replicate 1 = 0.49; active. Knock-down of pxb (GeneID 41899) [SID104203760] gave: infection score, replicate 1 = 2.22; inactive. Silencing of PIP5K59B (GeneID 37633) [SID104184082] resulted in: infection score, replicate 1 = 2.68; inactive.

Against PIP5K59B (GeneID 37633) [SID104184195], the values are infection score, replicate 1 = 2.94; inactive. acs (GeneID 38264) [SID104187977] gave infection score, replicate 1 = 5.51; inactive. With knock-down of acs (GeneID 38264) [SID104206173], the screen gave infection score, replicate 1 = 11.1; inactive.

Reagents listed above with an active call:
pxb (GeneID 41899) [SID104201756]: infection score, replicate 1 = 0.49; Call = active
